Anti-infective test results gathered from many reports (values: NIAID ChemDB through PubChem).

Shared fields: whole-cell or culture tests; agent: HIV-1

Neighbouring rows are from separate reports. ECn: concentration that inhibits the pathogen or its effect by n%. Blank or dashed fields: not listed here.

| smiles | measure | setting | strain | cell line | method | mutations | value |
|---|---|---|---|---|---|---|---|
| CC(C)=CCOc1cc(NC(=S)c2ccoc2C)ccc1Cl | EC50 | - | Recombinant | MT-4 | cytopathic effect | RT-V106A | 0.119 µM |
| O=[N+]([O-])c1ccc2oc3cc(F)ccc3c2c1 | EC50 | - | - | C8166 | syncytia | - | 21.8 µg/mL |
| O=C(OCC1OC(OCCc2ccccc2)C(O)C(O)C1O)c1cc(O)c(O)c(O)c1 | EC50 | - | MN | C8166 | ELISA | - | 40 µg/mL |
| O=C(/C=C/c1ccc(O)c(O)c1)OCCCOC(=O)/C=C/c1ccc(O)c(O)c1 | EC50 | - | - | CEM + CEM-SS | cytopathic effect / XTT | - | >13.5 µM |
| Nc1nc(=O)n([C@@H]2CS[C@H](CO)O2)cc1F | EC50 | - | - | PBMC | single cycle / fluorescence | - | 0.004244 µM |
| COc1ccc(Cl)cc1NC(=O)[C@H]1C[C@H](CCC(N)=O)N[C@]12C(=O)Nc1ccc(C)cc12 | EC50 | 10% FBS | pNF462 | Primary macrophages | p24 / ELISA | - | >10 µM |
| CC(C)(C)NC(=O)[C@@H]1C[C@@H]2CCCC[C@@H]2CN1C[C@@H](O)[C@H](Cc1ccccc1)NC(=O)[C@H](CC(N)=O)NC(=O)c1ccc2ccccc2n1 | EC50 | - | HXB2 | PBMC | p24 | - | 0.006 µM |
| CC(C)=CCc1cc(-c2coc3cc(O)cc(O)c3c2=O)cc(O)c1O | EC50 | - | - | MOLT-4/OKM-1(HIV-1) + MOLT-4 | syncytia | - | <20 µg/mL |
| CC(C)C1C(=O)N(C)c2ccc(Cl)cc2CN1C(=O)OC(C)(C)C | EC50 | - | - | MT-4 | cytopathic effect / MTT | - | >100 µM |
| O=C(/C=C/c1ccc(O)c(O)c1)NCCOC(=O)/C=C/c1ccc(O)c(O)c1 | EC50 | - | - | CEM + CEM-SS | cytopathic effect / XTT | - | >7.71 µM |
| Cc1ccnc2c1NC(=O)c1cccnc1N2C1CC1 | EC50 | - | IIIB | MT-4 | MTT | - | 0.31 µM |
| COc1ccc2oc3ccc([N+](=O)[O-])cc3c2c1 | EC50 | - | - | C8166 | syncytia | - | 8 µg/mL |
| Fc1cccc(F)c1C1SCc2nc3ccccc3n21 | EC50 | - | MN | CEM + CEM-SS | cytopathic effect / XTT | - | 1.5 µM |
| CCC(NP(=O)(CO[C@@H]1C=C(F)[C@H](n2cnc3c(N)ncnc32)O1)NC(CC)C(=O)OC(C)C)C(=O)OC(C)C | EC50 | - | IIIB | MT-2 | luminescence | - | >2 µM |
| C=C(C)OC(=O)N1c2cc(Cl)ccc2NC(=S)C1(C)C | EC50 | - | Recombinant | MT-4 | cytopathic effect | RT-P225H | 0.008 µM |
| CCOP(=O)(OC[C@H]1O[C@@H](n2cc(C)c(=O)[nH]c2=O)C[C@@H]1N=[N+]=[N-])C(N)=O | EC90 | - | GKV-4046 | MT-4 | p24 | - | 0.004 µM |
| O=C(C(=O)N1CCN(C(=O)c2ccccc2)CC1)c1c[nH]c2c(-n3ccnn3)ncc(F)c12 | EC50 | - | - | MT-2 | p24 / ELISA | - | 0.0059 µM |
| O=c1c(O)c(-c2ccc(O)cc2)oc2cc(OC3OC(CO)C(O)C(O)C3O)cc(O)c12 | EC50 | - | MN | C8166 | ELISA | - | >250 µg/mL |
| CC(C)=CCN1c2cc(Cl)cc3[nH]c(=S)n(c23)C[C@@H]1C | EC50 | - | - | MT-4 | - | RT-K70R | <0.1 µM |
| COC(=O)[C@H](C)NP(=O)(OC[C@@H]1C=C[C@H](n2cc(C)c(=O)[nH]c2=O)O1)Oc1ccccc1 | EC50 | - | IIIB | CEM + CEM/O | syncytia | - | 0.085 µM |
| CC(C)[C@H](NC(=O)N(C)Cc1ccccn1)C(=O)N[C@@H](Cc1ccccc1)[C@H](O)[C@H](O)[C@H](Cc1ccccc1)NC(=O)[C@@H](NC(=O)N(C)Cc1ccccn1)C(C)C | EC50 | - | IIIB | MT-4 | cytopathic effect / MTT | - | 0.2 µM |
| Cc1cn([C@H]2C[C@H](N=[N+]=[N-])[C@@H](CO)O2)c(=O)[nH]c1=O | EC90 | - | GKV-4046 | MT-4 | p24 | - | 0.35 µM |
| CC(C)=CCN1Cc2cc(Cl)ccc2NC(=O)C1C | EC50 | - | - | MT-4 | cytopathic effect / MTT | - | 5.5 µM |
| Cc1nnc(C(C)C)n1C1C[C@H]2CC[C@@H](C1)N2CC[C@H](NC(=O)C1CCC(F)(F)CC1)c1ccccc1 | EC50 | - | - | MT-2 | p24 / ELISA | - | 0.017 µM |
| CCO/N=C(\c1ccc(Br)cc1)C1CCN(C2(C)CCN(C(=O)c3c(C)cc[n+]([O-])c3C)CC2)CC1 | EC50 | - | 302072 R5 CLADE B | PBMC | p24 | - | 0.0019 µM |
| CC(=O)OCOP(=O)(OCOC(C)=O)C(=O)Oc1ccccc1 | EC50 | - | IIIB | H9 | cytopathic effect / MTT | - | >150 µM |
| COC(=O)C(C)(C)NP(=O)(OC[C@@H]1C=C[C@H](n2cc(C)c(=O)[nH]c2=O)O1)Oc1ccccc1 | EC50 | - | IIIB Laboratory clade B | CEM + CEM/O | syncytia | - | 0.29 µM |
| Cc1ccc(C(=O)Nc2ccc(S(=O)(=O)O)c3cc(S(=O)(=O)O)cc(S(=O)(=O)O)c23)cc1NC(=O)c1cccc(NC(=O)Nc2cccc(C(=O)Nc3cc(C(=O)Nc4ccc(S(=O)(=O)O)c5cc(S(=O)(=O)O)cc(S(=O)(=O)O)c45)ccc3C)c2)c1 | EC50 | - | IIIB | MT-4 | cytopathic effect / MTT | - | 42 µg/mL |
| O=C(NCCCCCCNC(=O)c1cc2cc(O)c(O)cc2[nH]1)c1cc2cc(O)c(O)cc2[nH]1 | EC50 | - | IIIB | MT-4 | fluorescence | - | >171 µM |
| COc1cc2oc(=O)ccc2cc1C[C@@H](OC)C(C)(C)O | EC50 | - | - | C8166 | MTT / syncytia | - | 6.28 µM |
| N#Cc1cccc2c1oc1ccccc12 | EC50 | - | - | C8166 | syncytia | - | 46.7 µg/mL |
| CC(C)=CCN1Cc2c(Cl)cccc2NC(=O)C1C | EC50 | - | - | MT-4 | cytopathic effect / MTT | - | 4.3 µM |
| CCc1c(Sc2ccccc2)n(COCc2ccccc2)c(=O)[nH]c1=O | EC50 | - | A012D | MT-4 | cytopathic effect / MTT | - | 0.0029 µM |
| CCOC(=O)c1ccc(NC(=O)[C@H]2C[C@H](CC(C)C)N[C@]23C(=O)Nc2ccc(C)cc23)cc1 | EC50 | 10% FBS | pNF462 | Primary macrophages | p24 / ELISA | - | 8.9 µM |
| O=C(/C=C/c1ccc(O)c(O)c1)O[C@H]1CCCC[C@@H]1OC(=O)/C=C/c1ccc(O)c(O)c1 | EC50 | - | - | CEM + CEM-SS | cytopathic effect / XTT | - | >5.67 µM |
| O=c1c(O)c(-c2ccc(O)c(O)c2)oc2cc(O)cc(O)c12 | EC50 | - | MN | C8166 | ELISA | - | 20 µg/mL |
| COc1ccnc2[nH]cc(C(=O)C(=O)N3CCN(C(=O)c4ccccc4)C[C@H]3C)c12 | EC50 | - | - | MT-2 | p24 / ELISA | - | 0.0025 µM |
| Cc1cn([C@H]2C[C@H](N=[N+]=[N-])[C@@H](CO)O2)c(=O)[nH]c1=O | EC50 | - | - | C8166 | MTT / syncytia | - | 0.01987 µM |
| COc1ccc2c(c1)N(C(=O)OC(C)C)[C@@H](CSC)C(=S)N2 | EC50 | - | Recombinant | MT-4 | cytopathic effect | RT-V106A P225H | 0.14 µM |
| CC(C)(O)C(=O)Cc1cc2ccc(=O)oc2cc1O | EC50 | - | - | C8166 | MTT / syncytia | - | 5.62 µM |
| Cc1cn([C@H]2C[C@H](N=[N+]=[N-])[C@@H](CO)O2)c(=O)[nH]c1=O | EC50 | - | - | CEM-CD4 | MTT / p24 | - | 0.002 µM |
| CC(C)=CCN1Cc2cc(Cl)ccc2NC(=O)[C@@H]1C | EC50 | - | - | MT-4 | cytopathic effect / MTT | - | 4.6 µM |
| CC1(C)Oc2cc3oc(=O)ccc3cc2[C@@H](O)[C@@H]1O | EC50 | - | - | C8166 | MTT / syncytia | - | 2.46 µM |
| O=C(/C=C/c1ccc(O)c(O)c1)OCCOC(=O)/C=C/c1ccc(O)c(O)c1 | EC50 | - | - | CEM + CEM-SS | cytopathic effect / XTT | - | >9.89 µM |
| Cc1cc(SC2=C(O)C[C@@](CCc3ccsc3)(C(C)C)OC2=O)c(C(C)(C)C)cc1C | EC50 | - | IIIB | CEM + CEM-SS | cytopathic effect / XTT | - | 0.14 µM |
| CCOC(=O)c1c(C(C)C)c(C#N)c(=N)n2ccccc12 | EC50 | - | - | MT-4 | cytopathic effect | - | <8 µM |
| CN=C(NC#N)NCCSCc1nc[nH]c1C | EC50 | - | - | MT-4 | p24 | - | 0.0268 µM |
| CCOCn1c(Cc2ccccc2)c(C(C)C)c(=O)[nH]c1=O | EC50 | - | - | MT-4 | cytopathic effect | - | 0.008 µM |
| CC(C)=CCN1Cc2cc(Cl)cc3[nH]c(=S)n(c23)C[C@@H]1C | EC50 | - | - | MT-4 | cytopathic effect / MTT | - | 0.034 µM |
| CC(C)c1nc(CN(C)C(=O)N[C@H](C(=O)N[C@@H](Cc2ccccc2)C[C@H](O)[C@H](Cc2ccccc2)NC(=O)OCc2cncs2)C(C)C)cs1 | EC50 | - | SF33 | PBMC | p24 / ELISA | - | 0.091 µM |
| O=[N+]([O-])c1cccc2c1oc1ccccc12 | EC50 | - | - | C8166 | syncytia | - | 42.92 µg/mL |
| O=C1N(Cc2ccc(CO)cc2)[C@H](Cc2ccccc2)[C@H](O)[C@@H](O)[C@@H](Cc2ccccc2)N1Cc1ccc(CO)cc1 | EC90 | - | RF | MT-2 | p24 / ELISA | - | 0.05 µM |
| CC(C)=CCN1Cc2cc(Cl)ccc2NCC1C(C)C | EC50 | - | - | MT-4 | cytopathic effect / MTT | - | >100 µM |
| C=C(C)OC(=O)N1c2cc(Cl)ccc2NC(=S)C1(C)C | EC50 | - | NEV(RT-V106A) | CEM | syncytia | RT-V106A | 0.16 µM |
| N#Cc1cccc2c1oc1cc(F)ccc12 | EC50 | - | - | C8166 | syncytia | - | 18.57 µg/mL |
| CCc1cc(NCc2nc3c(Cl)ccc(Cl)c3o2)c(=O)[nH]c1C | EC50 | - | NEV(RT-V106A) | CEM | syncytia | RT-V106A | 0.6 µM |
| O=c1c(O)c(-c2ccc(O)cc2)oc2cc(O)cc(O)c12 | EC50 | - | MN | C8166 | ELISA | - | 4 µg/mL |
| CC(C)=CCN1Cc2cc(Cl)ccc2NC(=S)C1C(C)C | EC50 | - | - | MT-4 | cytopathic effect / MTT | - | 5.1 µM |
| CC(=O)CCCCn1c(=O)c2c(ncn2C)n(C)c1=O | EC50 | - | IIIB | A3.5 | p24 | - | >1000 µM |
| COc1cccc(CN2C(=O)N(Cc3cccc(OC)c3)N(Cc3ccccc3)C[C@@H](O)[C@H]2Cc2ccccc2)c1 | EC50 | - | - | MT-4 | - | - | 0.93 µM |

Again, the opening 6 rows:

CC(C)=CCOc1cc(NC(=S)c2ccoc2C)ccc1Cl ; measure: EC50 ; strain: Recombinant ; cell line: MT-4 ; method: cytopathic effect ; mutations: RT-V106A ; value: 0.119 µM
O=[N+]([O-])c1ccc2oc3cc(F)ccc3c2c1 ; measure: EC50 ; cell line: C8166 ; method: syncytia ; value: 21.8 µg/mL
O=C(OCC1OC(OCCc2ccccc2)C(O)C(O)C1O)c1cc(O)c(O)c(O)c1 ; measure: EC50 ; strain: MN ; cell line: C8166 ; method: ELISA ; value: 40 µg/mL
O=C(/C=C/c1ccc(O)c(O)c1)OCCCOC(=O)/C=C/c1ccc(O)c(O)c1 ; measure: EC50 ; cell line: CEM + CEM-SS ; method: cytopathic effect / XTT ; value: >13.5 µM
Nc1nc(=O)n([C@@H]2CS[C@H](CO)O2)cc1F ; measure: EC50 ; cell line: PBMC ; method: single cycle / fluorescence ; value: 0.004244 µM
COc1ccc(Cl)cc1NC(=O)[C@H]1C[C@H](CCC(N)=O)N[C@]12C(=O)Nc1ccc(C)cc12 ; measure: EC50 ; setting: 10% FBS ; strain: pNF462 ; cell line: Primary macrophages ; method: p24 / ELISA ; value: >10 µM